# Data as given in publication PMC6724046 (Viruses, 2019).
# Test system: CPV
# Test: 50% antiviral efficacy concentration (EC50) assay, CPE-based
# Format: cell-based, Canine parvovirus
# Conditions: selectivity index, CC50/EC50
row,Structure (SMILES),SI
1,Cc1cc(C(C#N)c2ccc(Cl)cc2)c(Cl)cc1NC(=O)c1cc(I)cc(I)c1[O-].[Na+] (stereo not shown) [Closantel Sodium],3.17
2,Nc1nc(Cl)nc2c1ncn2[C@H]1C[C@H](O)[C@@H](CO)O1 [Cladribine],125.66
3,Cc1cc(C(C#N)c2ccc(Cl)cc2)c(Cl)cc1NC(=O)c1cc(I)cc(I)c1O (stereo not shown) [Closantel],1.76
4,O=c1[nH]c(=O)n([C@H]2C[C@H](O)[C@@H](CO)O2)cc1C(F)(F)F [Trifluridine],>17.11
